Results of unrelated studies side by side (data: NIAID ChemDB).

Common to all: tests in culture; species: HIV-1; cells: CEM + CEM-SS; read-out: inhibition

Blank or dashed fields: not listed here. Percent inhibition refers to the dose given; in toxicity tests it is the harm to the cells. Rows are shuffled and stem from different studies.

O=C(Cc1ccccc1)Nn1c(-c2ccccc2)nc2ccccc2c1=O ; strain or isolate: RF ; method: cytopathic effect / XTT ; dose: 200 µM ; value: 86.18%
Clc1cc2nc(C3CCCO3)[nH]c2cc1Cl ; strain or isolate: RF ; dose: 0.063 µM ; value: 2.5%
C[C@]1(O)CCN(Cc2ccccc2)C[C@@H]1O ; strain or isolate: BRU ; method: cytopathic effect ; dose: 100 µg/mL ; value: 4.3%
O=C(CCCN1C(=O)/C(=C/c2cccs2)SC1=S)Nc1ccc(O)c(C(=O)O)c1 ; method: cytopathic effect / XTT ; dose: 63 µM ; value: 39%
O[C@H]1CCN(Cc2ccccc2)C[C@@H]1O ; strain or isolate: BRU ; method: cytopathic effect ; dose: 100 µg/mL ; value: 2.3%
Cc1cn([C@H]2C[C@H](O)[C@@H](C[N+](C)(C)CCO)O2)c(=O)[nH]c1=O ; strain or isolate: IIIB ; method: plaque count / syncytia ; dose: 100 µM ; value: 44%
Oc1ccc2cc1Cc1cc(ccc1O)N=CC1=CC=C(C=Nc3ccc(O)c(c3)Cc3cc(ccc3O)N=CC3=CC=C(C=N2)O3)O1 ; strain or isolate: RF ; method: cytopathic effect / XTT ; dose: 2.5 µg/mL ; value: 35%
CC1(c2nc3ccccc3[nH]2)CCC(C(N)=O)C(C)(C)O1 ; strain or isolate: RF ; dose: 0.063 µM ; value: 2.3%
NS(=O)(=O)c1ccc(NC(=O)c2ccccc2SSc2ccccc2C(=O)Nc2ccc(S(N)(=O)=O)cc2)cc1 ; strain or isolate: RF ; method: p24 ; dose: 100 µM ; value: 85%
c1ccc(C2SCc3nc4cc5ccccc5cc4n32)cc1 ; strain or isolate: RF ; dose: 200 µM ; value: 15.01%
CC1C[C@H](O)[C@@H](O)CN1Cc1ccccc1 ; strain or isolate: BRU ; method: cytopathic effect ; dose: 10 µg/mL ; value: 55%
O=C(CCN1C(=O)/C(=C/c2ccc3c(c2)OCO3)SC1=S)Nc1ccc(C(=O)O)c(O)c1 ; method: cytopathic effect / XTT ; dose: 200 µM ; value: 19.5%
COc1ccc(/C=C2/C(=O)C(c3ccccc3)N(c3ccccc3)C2=O)cc1OC ; method: cytopathic effect / XTT ; dose: 0.2 µM ; value: 94%
Fc1ccccc1C1SCc2nc3cc4ccccc4cc3n21 ; strain or isolate: RF ; dose: 200 µM ; value: 2.59%
CC1(c2nc3cc(Cl)c(Cl)cc3[nH]2)CCC(C(=O)O)C(C)(C)O1 ; strain or isolate: RF ; dose: 20 µM ; value: 0.9%

For reference, 2 entries again:

structure | strain or isolate | method | dose | value
CC1(c2nc3ccccc3[nH]2)CCC(C(N)=O)C(C)(C)O1 | RF | - | 0.063 µM | 2.3%
O=C(Cc1ccccc1)Nn1c(-c2ccccc2)nc2ccccc2c1=O | RF | cytopathic effect / XTT | 200 µM | 86.18%